# Test system: Influenza A/WSN/33
# Assay: In vitro drug resistance by serial passage in A549 cells
# Assay type: cell-based
# Details: passaged with 0.2 μM verdinexor, DMSO pre-treated test cells
smiles,measurement,value
O=C(/C=C\n1cnc(-c2cc(C(F)(F)F)cc(C(F)(F)F)c2)n1)NNc1ccccn1 [verdinexor],Viral growth and/or fitness of virus passaged in the presence of verdinexor,apparent overall reduction of viral growth and/or fitness

# Reference: article PMC5125695, “Antiviral Efficacy of Verdinexor In Vivo in Two Animal Models of Influenza A Virus Infection” (PLoS ONE, 2016)
